Results: US20240123029A1 (HUMANITAS MIRASOLE S P A, published 2024)

Experiments:
[1] = target: T1, SARS-CoV-2 Nucleocapsid protein, His Tag (SARS-CoV-2); test: ELISA on N protein-coated plate, Ficolin-2 detected with anti-Ficolin-2 antibody
T1 construct: Bought

[2] = target: T1, SARS-CoV-2 Nucleocapsid protein, His Tag; test: ELISA on N protein-coated plate, CL-K1 detected with anti-CL-K1 antibody

Binder	binding result [1]	binding result [2]
Recombinant human Ficolin-2 (other) LQAADTCPEVKMVGLEGSDKLTILRGCPGLPGAPGPKGEAGTNGKRGERGPPGPPGKAGPPGPNGAPGEPQPCLTGPRTCKDLLDRGHFLSGWHTIYLPDCRPLTVLCDMDTDGGGWTVFQRRVDGSVDFYRDWATYKQGFGSRLGEFWLGNDNIHALTAQGTSELRVDLVDFEDNYQFAKYRSFKVADEAEKYNLVLGAFVEGSAGDSLTFHNNQSFSTKDQDNDLNTGNCAVMFQGAWWYKNCHVSNLNGRYLRGTHGSFANGINWKSGKGYNYSYKVSEMKVRPA	no binding	
Recombinant human Collectin-11 (CL-K1) (other) QPAGDDACSVQILVPGLKGDAGEKGDKGAPGRPGRVGPTGEKGDMGDKGQKGSVGRHGKIGPIGSKGEKGDSGDIGPPGPNGEPGLPCECSQLRKAIGEMDNQVSQLTSELKFIKNAVAGVRETESKIYLLVKEEKRYADAQLSCQGRGGTLSMPKDEAANGLMAAYLAQAGLARVFIGINDLEKEGAFVYSDHSPMRTFNKWRSGEPNNAYDEEDCVEMVASGGWNDVACHTTMYFMCEFDKENM		no binding
